Assay results from ChEMBL document CHEMBL1151434 (Antimicrob Agents Chemother, 2007).
Values after ≈ are worked out from the molar mass of the structure shown.

System: Chlamydia psittaci 6BC
Assay: Antibacterial activity against 0.01 MOI wild type Chlamydia psittaci 6BC BCRB infected in mouse L2 cells treated 2 hrs after infection measured on day 7 by plaque assay
Format: functional

## O=C(N[C@H](CO)[C@H](O)c1ccc([N+](=O)[O-])cc1)C(Cl)Cl [CHLORAMPHENICOL]
  MIC: 0.4 µg/mL (≈ 1.24 µM)
